In EP2767543B1, “SALTS OF CARBAMOYL PHOSPHONIC ACID ESTERS WHICH ACT AS SELECTIVE INHIBITORS OF HUMAN IMMUNODEFICIENCY VIRUS HIV-1 PRODUCTION” (Aktsionernoe Obshcestvo "Proizvodstvenno-Kommercheskaya …, priority 2011, dated 2013):

System: HIV-1, GVK4046
Assay: HIV-1 reproduction inhibition in MT-4 cell culture (p24 ELISA and MTT cell vitality, day 4)
Assay type: cell-based
Conditions: selective index: ratio of 50% toxic concentration to 50% effective dose, MT-4 cells
Description: The HIV inhibition study includes cultivation of primary infective MT-4 line lymphoid cells over the studied compounds, the ultimate concentrations of which in the culture medium range from 0.001 µg/ml to 100 µg/ml, during one passage, within 4 days.
HIV reproduction inhibition in the sensitive cell culture is determined by the reduction in p24 virus-specific protein accumulation (according to the enzyme-linked immunosorbent assay) and by the increase in cell vitality over the drug as compared with the reference cells, on Day 4 of the cultivation, using 3-(4.5-dimethylthiazole-2-yl-)-2,5-diphenyl tetrazolium (MTT) bromide staining.
The impact of the studied compounds on HIV-1 reproduction in MT-4 cell culture is studied using a well-known technique.

## Cc1cn([C@H]2C[C@H](N=[N+]=[N-])[C@@H](COP(=O)(O)C(N)=O)O2)c(=O)[nH]c1=O [Acid form (reference), [(2S,3S,5R)-3-azido-5-(5-methyl-2,4-deoxythymidine-1-yl)oxolan-2-yl]methyl ester of carbamoyl phosphonic acid, reference compound]
  IS: 3,250
